{
  "source": "patent US20110306541A1",
  "about": "“METHODS FOR TREATING HCV” (priority 2010, published 2011)",
  "tested_on": "HCV genotype 1b replicon cells (Huh-luc)",
  "experiment": "Antiviral combination studies with Compound 3, MacSynergy II",
  "settings": "in combination with Compound 3; mean ± SD",
  "note": "Where “and” joins values, the source holds several entries; their conditions need not be identical. Equal values may be shown once.",
  "data": [
    {"substance": "IFN-α", "values": [
      {"measurement": "Antagonism Volume (nM^2)", "value": "0.15 ± 0.2", "unit": "nM^2"},
      {"measurement": "Synergy Volume (nM^2)", "value": "32 nM^2 and 36.5 nM^2 and 32 ± 4.2 nM^2"}
    ]}
  ]
}
